Results of unrelated studies side by side (data: NIAID ChemDB).

Common to all: target-level tests; agent: Hepatitis B virus; protein: DNA polymerase; read-out: IC50

Rows are shuffled and stem from different studies. Blank or dashed fields: not listed here. a–b is a range or a potency band. ICn: concentration for n% inhibition.

smiles | strain or isolate | result
NC1C=CN([C@@H]2O[C@H](COP(=O)(O)OP(=O)(O)OP(=O)(O)O)[C@@H](O)[C@@H]2O)C(=O)N1 | - | 1.1 µM
Nc1nc2c(ncn2CCC(CO)COP(=O)(O)OP(=O)(O)OP(=O)(O)O)c(=O)[nH]1 | - | 8 µM
Nc1ccn([C@@H]2CS[C@H](CO)O2)c(=O)n1 | - | 0.01 µM
Cc1ccc(C(=O)NC(C)(C)C)c(Nc2ccc3cn[nH]c3c2)n1 | - | <1 µg/mL
Nc1nc2c(ncn2CC[C@@H](CO)COP(=O)(O)OP(=O)(O)OP(=O)(O)O)c(=O)[nH]1 | - | 11 µM
Cc1ccc(C(=O)NN2CCN(C)CC2)c(Nc2ccc3cn[nH]c3c2)n1 | - | <0.1 µg/mL
CCOC(=O)N1CCN(c2nc(Nc3ccc4[nH]ncc4c3)nc(OC)n2)CC1 | - | >1 µg/mL
Cc1cn([C@H]2C[C@H](Cl)[C@@H](COP(=O)(O)OP(=O)(O)OP(=O)(O)O)O2)c(=O)nc1N | - | <100 µM
COc1nc(Nc2ccc3cn[nH]c3c2)nc(NC2CC2)n1 | - | >1 µg/mL
Nc1ccn([C@H]2CS[C@@H](COP(=O)(O)OP(=O)(O)OP(=O)(O)O)O2)c(=O)n1 | Polymerase mutant M550V/L526M/V553I | 9.92 µM
COc1nc(Nc2ccc3[nH]ncc3c2)nc(NC2CC2)n1 | - | 0.01–0.1 µg/mL
Cc1ccc(C(=O)NCCN(C)C)c(Nc2ccc3cn[nH]c3c2)n1 | - | ~0.01 µg/mL
COc1nc(NCCc2ccccn2)nc(Nc2ccc3cn[nH]c3c2)n1 | - | >1 µg/mL
Cc1ccc(C(=O)NC(C)C)c(Nc2ccc3[nH]ncc3c2)n1 | - | ~0.1 µg/mL
COc1nc(Nc2ccc3[nH]ncc3c2)nc(N2CCC(C(N)=O)CC2)n1 | - | 0.1–1 µg/mL
Cc1ccc(C(=O)NCc2cccnc2)c(Nc2ccc3[nH]ncc3c2)n1 | - | <1 µg/mL
COc1nc(NCCCn2ccnc2)nc(Nc2ccc3cn[nH]c3c2)n1 | - | 0.1–1 µg/mL
Cc1ccc(C(=O)NCCO)c(Nc2ccc3cn[nH]c3c2)n1 | - | ~0.01 µg/mL

Repeating the first 2 entries:

{"smiles": "NC1C=CN([C@@H]2O[C@H](COP(=O)(O)OP(=O)(O)OP(=O)(O)O)[C@@H](O)[C@@H]2O)C(=O)N1", "result": "1.1 µM"}
{"smiles": "Nc1nc2c(ncn2CCC(CO)COP(=O)(O)OP(=O)(O)OP(=O)(O)O)c(=O)[nH]1", "result": "8 µM"}